## Library screen at single concentrations

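Whole-cell growth test on Mycobacterium tuberculosis, read after 4 days in a medium based on cholesterol and the lipid DPPC; the read-out is not stated. Compounds at 500 µM. Higher reads as more growth inhibition (inferred: compounds with an IC50 in retests scored well above the rest). Of about 18,000 compounds tested this way, about 900 (5%) reached 50% or more in at least one test.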

Each number is a percent effect as filed. The controls that fix the scale are not given in the record; negative values are as filed. Many other results are left out here, so strong results are more common than in the screen.

| SMILES | effect |
|---|---|
| `Cc1ccccc1OCCCNC(=O)NC[C@@H](C)O` | 24.36% |
| `CSCCC(=O)N(C)Cc1cccc(-n2cccn2)c1` | 65.14% |
| `Cn1ncnc1NC(=O)c1c(F)cc(F)cc1F` | -11.4% |
| `Cn1cc(CC(=O)Nc2ccc(I)cn2)cn1` | 54.6% |
| `c1ccc(NC2CCN(C3CCCC3)C2)nc1` (stereo not shown) | 70.38% |
| `COc1ccc(CN2CCCNCC2)cc1` | 51.41% |
| `CC(Cn1ccnc1)NC(=O)Nc1nccs1` (stereo not shown) | -9.895% |
| `COCc1ccccc1CNC(=O)NC(C)C` | -4.449% |
| `CCS(=O)(=O)N1CC(C(=O)NC)Oc2ccccc21` (stereo not shown) | -17.93% |
| `COCCOc1ccc(NC(=O)OCC(F)(F)F)cn1` | 70.46% |
| `CCC(CO)NC(=O)c1ccc(F)cc1C(F)(F)F` (stereo not shown) | -0.6914% |
| `N#Cc1ccc(NCCOc2ccccc2)nc1` | 60.82% |
| `COCC1CCN(C(=O)CCc2cscn2)CC1` | 33.81% |
| `CN(Cc1ccc2cc(Cl)ccc2n1)CC(O)CO` (stereo not shown) | 18.62% |
| `Cn1nccc1[C@H]1OCC[C@@H]1N` | -8.576% |
| `CC(C)OCc1cccc(NC(C)C(=O)NC(N)=O)c1` (stereo not shown) | 5.622% |
| `C[C@H](N)c1ccc(Cl)s1` | 23.87% |
| `NCC(=O)N1CCCC(CCc2ccc(F)c(F)c2)C1` (stereo not shown) | 89.66% |
| `CCS(=O)(=O)NCCSc1nc2cc(F)c(F)cc2[nH]1` | 58.75% |
| `COCC(C)NC(=O)CSc1nc(N)c2ccsc2n1` (stereo not shown) | 6.297% |
| `CCCn1nnnc1NCc1ccsc1` | 70.63% |
| `COCCCNc1ccc(Br)cn1` | 23.52% |
| `CC(NC(=O)CNc1cc(F)cc(Br)c1)C(=O)N(C)C` (stereo not shown) | 58.66% |
| `CS(=O)(=O)N1CCC(Cc2ccccc2)C1` (stereo not shown) | 61.42% |
| `CCN(C(=O)c1cccnc1SC)[C@H]1COC[C@@H]1O` | 7.571% |
| `NCc1ccn(-c2ccc(F)cc2)n1` | 28.37% |
| `O=C(NCc1cn2ccccc2n1)C1CCC1` | -26.15% |
| `Cc1ccc(CNCc2cscn2)c(N2CCCC2)n1` | 12.32% |
| `CCCN1CCC(Cc2noc(C3CCNC3)n2)CC1` (stereo not shown) | -2.218% |
| `O=C(CN1CCNCC1)c1ccccc1Cl` | 14.01% |
| `CC(=O)c1ccc(NC(N)=O)cc1Cl` | 37.97% |
| `COc1cccc(-c2ccc(CNS(N)(=O)=O)cc2)c1` | 93.15% |
| `NS(=O)(=O)N1CCN(CCCc2cccc(F)c2)CC1` | 11.19% |
| `O=C(c1ccsc1)N1CCC2(CC1)OCCO2` | 1.787% |
| `NCCc1cc(C(F)(F)F)ccn1` | -22.59% |
| `COc1ccccc1C(=O)CN` | 0.4123% |
| `COc1cccc(Cl)c1CN` | -8.885% |
| `O=C(Nc1ccc(Br)cn1)C1CCCNC1` (stereo not shown) | 1.307% |
| `CNC(=O)c1cccc(NCc2ccc(C#N)s2)n1` | 53.18% |
| `O=C(NCCc1ccccn1)Nc1cn[nH]c1` | 11.93% |
| `CN(C)CCN(CCN(C)C)C(=O)NC1CC1` | 1.225% |
| `CCN(CC)Cc1nnnn1-c1ccccc1` | 1.729% |
| `CC(=O)N(CC(=O)N1CCCCC1)c1ccc(C)cc1` | 5.658% |
| `Cc1ccncc1NC1CS(=O)(=O)c2ccccc21` (stereo not shown) | 101.1% |
| `CCCNc1nnc(SCC(C)(C)O)s1` | 75.39% |
| `CC1NCCn2c(Cl)ccc21` (stereo not shown) | -34.31% |
| `O=C(NCc1cccc(Cl)c1)c1cnns1` | 70.12% |
| `CSCc1noc(CN2CCCC(N(C)C)CC2)n1` (stereo not shown) | -21.23% |

For reference, 5 entries once more:

* Cn1nccc1[C@H]1OCC[C@@H]1N | -8.576%
* COCCCNc1ccc(Br)cn1 | 23.52%
* COCCOc1ccc(NC(=O)OCC(F)(F)F)cn1 | 70.46%
* COCc1ccccc1CNC(=O)NC(C)C | -4.449%
* NCCc1cc(C(F)(F)F)ccn1 | -22.59%

From ChEMBL document CHEMBL3988442, “University of Dundee, Small-Polar-MMV Screening Library” (2021).